Measured values from several laboratories, pooled; numbers as filed in NIAID ChemDB.

Common to all: growth or infection tests; species: Hepatitis C virus

Blank or dashed fields: not listed here.

C[C@@]1(O)[C@H](O)[C@@H](CO)O[C@H]1c1ccc2c(N)ncnn12 ; cells: Huh7.5 ; endpoint: EC50 ; method: PCR ; strain: GT4a ; result: 0.88 µM
CCC[C@H](NC(=O)[C@@H]1[C@H]2CCC[C@H]2CN1C(=O)[C@@H](NC(=O)[C@@H](NC(=O)c1cnccn1)C1CCCCC1)C(C)(C)C)C(=O)C(=O)NC1CC1 ; cells: Huh7.5 ; endpoint: EC50 ; mutations: Y93H+V153M+M202L+M265V ; method: luciferase / reporter gene ; strain: genotype 1b ; result: 0.1582 µM
O=C(O)c1c(-c2ccc(F)cc2)nc(SCc2nc3ccccc3[nH]2)[nH]c1=O ; cells: Huh7 ; endpoint: EC90 ; method: replicon / PCR ; result: 0.678 µM
C[C@@]1(O)[C@H](O)[C@@H](CO)O[C@H]1n1cnc2c(N)ncnc21 ; cells: H77 ; endpoint: EC50 ; method: luciferase ; result: 0.3717 µM
CC(C)OC(=O)[C@H](C)N[P@](=O)(OC[C@H]1O[C@@](C#N)(c2ccc3c(N)ncnn23)[C@](C)(O)[C@@H]1OC(=O)C(C)C)Oc1ccccc1 ; cells: 1C ; endpoint: fold resistance ; mutations: D168V ; method: luciferase ; strain: 1b Con1 ; result: 0.61
COC(=O)N[C@H](C(=O)N1CCC[C@H]1c1ncc(-c2ccc(-c3ccc(-c4cnc([C@@H]5CCCN5C(=O)[C@@H](NC(=O)OC)C(C)C)[nH]4)cc3)cc2)[nH]1)C(C)C ; tested at: 0.00008 µM ; cells: Huh7 ; endpoint: inhibition ; method: luciferase / replicon ; strain: 1b Con1 ; result: 95.85%
CC[C@H]1C[C@]1(NC(=O)[C@@H]1C[C@@H]2CN1C(=O)[C@H](C(C)(C)C)NC(=O)OCC(C)(C)CCCCc1cccc3c1CN(C3)C(=O)O2)C(=O)NS(=O)(=O)C1CC1 ; cells: Huh7.5 ; endpoint: EC50 ; method: antigen ; strain: HK6a ; result: 0.035 µM
Clc1ccc(Cn2c(CN3CCCC3)nc3ccccc32)cc1 ; tested at: 15 µM ; cells: Huh7 ; endpoint: inhibition ; method: luciferase / replicon ; strain: 1b Con1 ; result: 71.8%
CC(C)(CO)C(=O)SCCOP(=O)(NCc1ccccc1)OC[C@H]1O[C@@H](n2cnc3c(=O)[nH]c(N)nc32)[C@](C)(O)[C@@H]1O ; cells: Replicon cells ; endpoint: fold resistance ; mutations: Q30H ; method: replicon ; strain: GT1a ; result: 1.07
O=C(O)c1c(-c2ccco2)nc(SCc2nc3ccccc3[nH]2)[nH]c1=O ; cells: Huh7 ; endpoint: EC90 ; method: replicon / PCR ; result: 0.535 µM
CNC(=O)c1c(-c2ccc(F)cc2)oc2cc(N(CCO)S(C)(=O)=O)c(C3CC3)cc12 ; cells: Huh7 ; endpoint: EC50 ; method: luciferase ; strain: 2b ; result: 0.0162 µM
N#Cc1c(-c2ccc(Cl)cc2)nc(SCc2nc3ccccc3[nH]2)[nH]c1=O ; cells: Huh7 ; endpoint: EC90 ; method: replicon / PCR ; result: 0.654 µM
CC(C)(C)OC(=O)N[C@@H]1CCCCC/C=C\[C@@H]2C[C@@]2(C(=O)NS(=O)(=O)C2CC2)NC(=O)[C@@H]2C[C@@H](OC(=O)N3Cc4cccc(F)c4C3)CN2C1=O ; cells: Huh7.5 ; endpoint: EC50 ; method: antigen ; strain: S52 ; result: 0.894 µM
O=c1c(O)c(-c2ccc(O)c(O)c2)oc2cc(O)cc(O)c12 ; tested at: 0.1 µM ; cells: Huh7 ; endpoint: inhibition ; method: PCR ; strain: G1 ; result: 49%
O=C(O)c1c(-c2ccccc2O)nc(SCc2nc3ccccc3[nH]2)[nH]c1=O ; cells: Huh7 ; endpoint: EC90 ; method: replicon / PCR ; result: 0.987 µM
CC(C)n1c(/C=C/[C@@H](O)C[C@@H](O)CC(=O)O)c(-c2ccc(F)cc2)c2ccccc21 ; cells: Huh 5-2 ; endpoint: EC90 ; method: luciferase / replicon ; result: 14 µM
O=c1cc(-c2ccc(O)cc2)oc2cc(O)cc(O)c12 ; tested at: 1 µM ; cells: Huh7 ; endpoint: inhibition ; method: PCR ; strain: G1 ; result: 30%
C[C@@]1(O)[C@H](O)[C@@H](CO)O[C@H]1c1coc2c(N)ncnc12 ; tested at: 10 µg/mL ; cells: Hep3B-T5B ; endpoint: inhibition ; method: MTT ; result: 1.01%
N#Cc1c(-c2ccccc2Cl)nc(SCc2nc3ccccc3[nH]2)[nH]c1=O ; cells: Huh7 ; endpoint: EC90 ; method: replicon / PCR ; result: 0.564 µM
Fc1ccccc1-c1nc2ccn(Cc3ccc(-c4ccc(C(F)(F)F)cc4C(F)(F)F)nn3)cc-2n1 ; cells: Huh7 ; endpoint: EC50 ; method: luciferase ; strain: 1a ; result: 0.0159 µM
O=C(O)c1c(-c2ccc(F)cc2)nc(NCc2nc3ccccc3[nH]2)[nH]c1=O ; cells: Huh7 ; endpoint: EC90 ; method: replicon / PCR ; result: 1.23 µM
CCC[C@H](NC(=O)[C@@H]1[C@H]2CCC[C@H]2CN1C(=O)[C@@H](NC(=O)[C@@H](NC(=O)c1cnccn1)C1CCCCC1)C(C)(C)C)C(=O)C(=O)NC1CC1 ; endpoint: EC50 ; method: luciferase ; strain: 1b A156S ; result: >10 µM

Again, the opening 2 rows:

SMILES,tested at,cells,endpoint,mutations,method,strain,result
C[C@@]1(O)[C@H](O)[C@@H](CO)O[C@H]1c1ccc2c(N)ncnn12,,Huh7.5,EC50,,PCR,GT4a,0.88 µM
CCC[C@H](NC(=O)[C@@H]1[C@H]2CCC[C@H]2CN1C(=O)[C@@H](NC(=O)[C@@H](NC(=O)c1cnccn1)C1CCCCC1)C(C)(C)C)C(=O)C(=O)NC1CC1,,Huh7.5,EC50,Y93H+V153M+M202L+M265V,luciferase / reporter gene,genotype 1b,0.1582 µM

Inhibition is in % at the dose shown (toxicity tests: loss of growth or viability). Lines come from different laboratories, so protocols vary. ECn: concentration that inhibits the pathogen or its effect by n%. Fold resistance: result on the changed form divided by that on wild type.